Experimental data as given in patent publication US20140154248A1.

Target: human mesothelin (human) (UniProt Q13421)
Test: cell-based or functional assay

SS1-LR
EC50 (ng/ml), cytotoxicity WST-8, A431/K5 cells: 0.72 ng/mL | EC50 (ng/ml), cytotoxicity WST-8, A1847 cells: 4.7 ng/mL | EC50 (ng/ml), cytotoxicity WST-8, HAY cells: 1.05 ng/mL | EC50 (ng/ml), cytotoxicity WST-8, KB31 cells: 9.34 ng/mL | EC50 (ng/ml), cytotoxicity WST-8, L55 cells: 4.66 ng/mL | EC50 (ng/ml), cytotoxicity WST-8, M30 cells: 3.23 ng/mL | EC50 (ng/ml), cytotoxicity WST-8, NCI-H322M cells: 1.8 ng/mL | EC50 (ng/ml), cytotoxicity WST-8, OVACR-8 cells: 4.13 ng/mL | Relative Activity (SS1-LR against SS1P), A431/K5 cells: 0.24 | Relative Activity (SS1-LR against SS1P), A1847 cells: 0.98 | Relative Activity (SS1-LR against SS1P), HAY cells: 4.56 | Relative Activity (SS1-LR against SS1P), KB31 cells: 0.05 | Relative Activity (SS1-LR against SS1P), L55 cells: 1.14 | Relative Activity (SS1-LR against SS1P), M30 cells: 0.79 | Relative Activity (SS1-LR against SS1P), NCI-H322M cells: 0.35 | Relative Activity (SS1-LR against SS1P), OVACR-8 cells: 0.34
